System: rats
Assay: Flinches in rats after intraplantar injection of crude Cyanea capillata venom
Assay type: in vivo, rat
Details: 40 mg/kg BCTC s.c. one hour before venom, 4 minutes, p<0.05, n=6

CC(C)(C)c1ccc(NC(=O)N2CCN(c3ncccc3Cl)CC2)cc1 [BCTC, N-(4-Tertiarybutylphenyl)-4-(3-cholorphyridin-2-yl)tetrahydropyrazine-1(2H)-carbox-amide]
number of flinches (mean) after intraplantar crude venom following BCTC: 14.0

Source: patent publication US20100234454A1 (priority 2006, published 2010)
